Compound potency records, mixed from different reports. Data source: NIAID ChemDB in PubChem.

Shared fields: cytotoxicity tests; cells: HeLa; measure: CC50

Two numbers with a dash give a range or band. Rows are shuffled and stem from different studies. CCn: concentration that lowers growth or viability of the cells by n%.

SMILES,result
Nc1nccc2c1ncn2[C@@H]1C[C@H](CO)[C@@H](O)[C@H]1O,1.3 µg/mL
CCC(=C/C(C)C/C=C/C(C)=C/C(COC(C)=O)C(=O)C(C)C(OC(C)=O)C(C)C/C(C)=C/C(=O)OC)/C=C/C1OC(=O)C=CC1C,0.03 µM
CCC1OC(=O)C(C)CC(C)C(OC2OCCCC2O)C(C)C(=O)/C=C/C1(C)O,1–10 µg/mL
CCC(=C/C(C)C/C=C/C(C)=C/C(C)C(=O)C(C)C(O)C(C)CC1=CC(=O)OC1)/C=C/C1OC(=O)C=CC1C,0.0017 µM
Nc1nc2c(nnn2C[C@H]2CC[C@@H](CO)C2)c(=O)[nH]1,≥400 µg/mL
NC(=O)c1nc(F)c[nH]c1=O,>1000 µg/mL
Cc1cccc(OCCNC(=O)c2ccc(Cl)cc2Cl)c1,124.6 µM
CCOC(=O)/C=C/[C@H](C[C@@H]1CCNC1=O)NC(=O)[C@@H](CC(=O)[C@@H](NC(=O)c1cc(C)on1)C(C)C)Cc1ccc(F)cc1,>100 µM
Nc1ncnc2c1ccn2[C@@H]1O[C@H](CO)[C@@H](O)[C@H]1O,0.0065 µg/mL
CC(C)[Si]1(C(C)C)OC[C@H]2O[C@@H](n3cnc4cc(Cl)c(Cl)cc43)[C@H](O)[C@H]2O[Si](C(C)C)(C(C)C)O1,≥40 µg/mL
O=c1[nH]cnc2c1ncn2[C@@H]1C=C(CO)[C@@H](O)[C@H]1O,>5 µg/mL
CC(=O)OC[C@]1(C)CCC[C@@]2(C)[C@H]1[C@H](O)CC1C[C@H](OC(C)=O)[C@]3(C)CC[C@]12C3,180 µM
CC(C)[Si]1(C(C)C)OC[C@H]2O[C@@H](n3cnc4cc(Cl)c(Cl)cc43)[C@@H](O)[C@H]2O[Si](C(C)C)(C(C)C)O1,40–400 µg/mL
O=C1N2C3C(=COC=CC3O)C[C@]23SSSS[C@]12CC1=COC=CC(O)C1N2C3=O,3 µg/mL
OC[C@H]1O[C@H](n2cnc3cc(Cl)c(Cl)cc32)[C@@H](O)[C@H]1O,≥400 µg/mL
Nc1nc2c(ncn2C[C@H]2CC[C@@H](CO)C2)c(=O)[nH]1,≥400 µg/mL
COc1cc2c(c3c1c(=O)c1ccccc1n3C)C=CC(C)(C)O2,<20 µg/mL
O=c1[nH]cnc2c1ncn2[C@H]1CC[C@@H](CO)O1,>200 µM
Nc1ncnc2c1ccn2[C@@H]1O[C@H](CO)[C@@H](O)[C@H]1O,1 µg/mL
Cc1cccc(OCCNC(=O)c2ccccc2Cl)c1,>172.6 µM
CC(=C/C(C)C/C=C/C(C)=C/C(C)C(=O)C(C)C(O)C(C)C/C(C)=C/C(=O)O)/C=C/C1OC(=O)C=CC1C,0.0026 µM
COC(=O)[C@]1(C)CCC[C@@]2(C)[C@H]1[C@H](OC(=O)c1ccccc1)CC1C[C@H](O)[C@]3(C)CC[C@]12C3,8.1 µM
CCCCC/C=C\C/C=C\C/C=C\C/C=C\CCCC(=O)O[C@H]1CC[C@@]2(C)C(=CC[C@H]3[C@@H]4CC[C@H]([C@H](C)CCCC(C)C)[C@@]4(C)CC[C@@H]32)C1,150 µg/mL
CC(C)S(=O)(=O)n1c(N)nc2ccc(/C(=N/O)c3ccccc3)cc21,6.25–12.5 µg/mL
CS[C@@]12CC3=COC=CC(OC(C)=O)C3N1C(=O)[C@]1(SC)CC3=COC=CC(OC(C)=O)C3N1C2=O,100 µg/mL
Nc1ccn([C@H]2CC[C@@H](CO)O2)c(=O)n1,>100 µM
NCc1cccc(-c2cc(=O)n(O)c3ncccc23)c1,0.26 µM
C[C@@]12CC[C@]3(C1)C(C[C@@H](O)[C@H]1[C@](C)(CO)CCC[C@@]13C)C[C@@H]2O,190 µM
COc1ccc(N2CCN(c3cccc(C)c3)CC2)nn1,>50 µg/mL
Cc1cccc(OCCNC(=O)c2ccc(C)cc2Cl)c1,154.1 µM
Nc1ncnc2c1c(Br)cn2[C@@H]1O[C@H](CO)[C@@H](O)[C@H]1O,0.4 µg/mL
CC[C@]1(CO)O[C@@H](n2cc(C)c(=O)[nH]c2=O)C[C@@H]1O,>100 µM
CC(=O)OC1C=COC=C2C[C@@]34SC(=S)S[C@]5(CC6=COC=CC(OC(C)=O)C6N5C3=O)C(=O)N4C21,>100 µg/mL
NC(=S)c1cn([C@@H]2O[C@H](CO)[C@@H](O)[C@@H]2O)c2ncnc(N)c12,2.4 µM
CCC(=C/C(C)C/C=C/C(C)=C/C(COC(C)=O)C(=O)C(C)C(OC(C)=O)C(C)C/C(C)=C/C(=O)O)/C=C/C1OC(=O)C=CC1C,0.007 µM
CC(=O)OC1C=COC=C2C[C@@]3(S)C(=O)N4C5C(=COC=CC5OC(C)=O)C[C@@]4(S)C(=O)N3C21,>160 µg/mL
N=C(N)c1cn([C@H]2C[C@H](O)[C@@H](CO)O2)c2ncnc(N)c12,14 µM
Cc1cccc(OCCNC(=O)c2cccnc2Cl)c1,>172 µM
Nc1ncnc2c([C@H]3CC[C@@H](CCl)O3)[nH]nc12,400 µg/mL
C[C@@]12CC[C@]3(C1)C(CC2=O)C[C@@H](O)[C@H]1[C@](C)(C(=O)O)CCC[C@@]13C,898 µM
CC(=O)Oc1ccccc1C(=O)NCCOc1cccc(C)c1,66.7 µM
OCCOC(CCO)n1cnc2cc(Cl)c(Cl)cc21,≥200 µg/mL
N/C(=N/O)c1cn([C@@H]2O[C@H](CO)[C@@H](O)[C@@H]2O)c2ncnc(N)c12,175 µM
NC(=O)c1csc(C2OC(CO)C(O)C2O)c1,90 µM
CCCCCCCCCCCCCCCC(=O)O,50–100 µg/mL
O=C(NCCOc1ccc2ccccc2c1)c1ccccc1Cl,89.6 µM
CC(=O)OC1C=COC=C2C[C@@]34SSSS[C@]5(CC6=COC=CC(OC(C)=O)C6N5C3=O)C(=O)N4C21,115 µg/mL
Nc1ncnc2c1ccn2[C@@H]1O[C@H](CO)[C@H](O)[C@H]1O,4 µg/mL
Nc1ncnc2c1ncn2[C@@H]1O[C@](F)(COS(N)(=O)=O)[C@@H](O)[C@H]1O,75 µg/mL
Nc1nc(Cl)c2nnn(C[C@H]3CC[C@@H](CO)C3)c2n1,400 µg/mL
NC(=O)c1cn([C@H]2C[C@H](O)[C@@H](CO)O2)c2ncnc(N)c12,1.5 µM
CC(=C/C(C)C/C=C/C(C)=C/C(CO)C(=O)C(C)C(O)C(C)C/C(C)=C/C(=O)O)/C=C/C1OC(=O)C=CC1C,0.0074 µM
O=c1[nH]cnc2c1ncn2[C@H]1CC[C@@H](CO)O1,500 µM
C=C[C@]1(CO)O[C@@H](n2cc(C)c(=O)[nH]c2=O)C[C@@H]1O,>100 µM
CN1C(=O)[C@]23CC4=CC=C[C@H](O)[C@H]4N2C(=O)[C@@]1(CO)SSSS3,30 µg/mL
COCC(=O)NC(CCSC[C@H]1O[C@@H](n2ccc3c(N)ncnc32)[C@H](O)[C@@H]1O)C(=O)O,>400 µg/mL
COc1cc(O)c2c(=O)cc(-c3ccc(OC)c(-c4c(O)cc(O)c5c(=O)cc(-c6ccc(O)cc6)oc45)c3)oc2c1,12.8 µg/mL
CCOC(=O)OC1C=COC=C2C[C@@]34SS[C@]5(CC6=COC=CC(O)C6N5C3=O)C(=O)N4C21,15 µg/mL
Cc1ccc(NCN2C(=O)c3ccccc3C2=O)cc1,159.2 µM
OC[C@H]1OC(O)C[C@@H](O)[C@@H]1O,5000 µM
NC(=O)c1csc([C@@H]2O[C@H](CO)[C@@H](O)[C@H]2O)n1,100 µM
OCCOC(CO)n1cnc2cc(Cl)c(Cl)cc21,≥400 µg/mL
CN[C@@H]1[C@@H](O)[C@@H](O[C@@H]2[C@@H](O)[C@H](O[C@H]3O[C@H]([C@H](C)N)[C@@H](O)[C@H](O)[C@H]3N)[C@@H](N)C[C@H]2N)OC[C@]1(C)O,>100 µg/mL
Cc1cccc(OCCNC(=O)c2ccccc2F)c1,170 µM
O=c1[nH]c(=O)n([C@H]2C[C@H](O)[C@@H](CO)O2)cc1/C=C/Br,>400 µg/mL
O=C(/C=C/c1ccc(O)c(O)c1)O[C@@H]1C[C@](OC(=O)/C=C/c2ccc(O)c(O)c2)(C(=O)O)C[C@@H](O)[C@H]1O,>400 µM
Nc1nc(Cl)c2ncn(C[C@H]3CC[C@@H](CO)C3)c2n1,≥10 µg/mL
CCOc1cc(O)c(C(=O)/C=C/c2ccc(OC)cc2)c(OC)c1,≥6.25 µg/mL
O=c1cc(N2CCc3ncccc3C2)c2cccnc2n1O,0.42 µM
C=C1CCC2CC(C(=C)C)C2(C)CCC(C(=C)C(=O)O)CC1CC=C(C)C,202 µg/mL
Nc1ncnc2c1ncn2[C@@H]1C=C(CO)[C@@H](O)[C@H]1O,94 µg/mL
Cc1cccc(OC2CN(C(=O)c3ccccc3Cl)C2)c1,127.9 µM

The first 10 rows once more:

SMILES | result
Nc1nccc2c1ncn2[C@@H]1C[C@H](CO)[C@@H](O)[C@H]1O | 1.3 µg/mL
CCC(=C/C(C)C/C=C/C(C)=C/C(COC(C)=O)C(=O)C(C)C(OC(C)=O)C(C)C/C(C)=C/C(=O)OC)/C=C/C1OC(=O)C=CC1C | 0.03 µM
CCC1OC(=O)C(C)CC(C)C(OC2OCCCC2O)C(C)C(=O)/C=C/C1(C)O | 1–10 µg/mL
CCC(=C/C(C)C/C=C/C(C)=C/C(C)C(=O)C(C)C(O)C(C)CC1=CC(=O)OC1)/C=C/C1OC(=O)C=CC1C | 0.0017 µM
Nc1nc2c(nnn2C[C@H]2CC[C@@H](CO)C2)c(=O)[nH]1 | ≥400 µg/mL
NC(=O)c1nc(F)c[nH]c1=O | >1000 µg/mL
Cc1cccc(OCCNC(=O)c2ccc(Cl)cc2Cl)c1 | 124.6 µM
CCOC(=O)/C=C/[C@H](C[C@@H]1CCNC1=O)NC(=O)[C@@H](CC(=O)[C@@H](NC(=O)c1cc(C)on1)C(C)C)Cc1ccc(F)cc1 | >100 µM
Nc1ncnc2c1ccn2[C@@H]1O[C@H](CO)[C@@H](O)[C@H]1O | 0.0065 µg/mL
CC(C)[Si]1(C(C)C)OC[C@H]2O[C@@H](n3cnc4cc(Cl)c(Cl)cc43)[C@H](O)[C@H]2O[Si](C(C)C)(C(C)C)O1 | ≥40 µg/mL